Compound potency records, mixed from different reports. Data source: NIAID ChemDB in PubChem.

All rows: growth or infection tests; species: Mycobacterium tuberculosis

MIC bound: limit read from a one-dose screen. Inhibition is in % at the dose shown (toxicity tests: loss of growth or viability). A number after MIC or MFC names an inhibition level or a share of isolates. Lines come from different laboratories, so protocols vary. Two numbers with a dash give a range or band. An empty or dashed field is not shown. For "inactive" no cut-off is given.

structure | setting | tested at | read-out | method | strain or isolate | value
COc1cc2c(cc1OC)[C@@]13CCN4C=C5CCO[C@H]6CC(=O)N2[C@H]1[C@H]6[C@H]5C[C@H]43 | - | 12.8 µg/mL | inhibition | BACTEC | H37Rv | 10%
CC1=C(O)C(C)(CCC(C)C)SC1=O | - | - | MIC50 | - | H37Rv | 230 µM
Cc1cn2c(C(=O)NCc3ccc(N4CCCN(c5ccc(S(F)(F)(F)(F)F)cc5)CC4)c(F)c3)c(C)nc2s1 | - | - | MIC90 | resazurin | H37Rv | <2 µM
O=C(N=Nc1c(O)[nH]c2ccc(Br)cc12)c1ccco1 | - | 12.5 µg/mL | inhibition | BACTEC | H37Rv | -26%
CCc1nc2cc(C)ccn2c1C(=O)NCc1cccc(S(F)(F)(F)(F)F)c1 | - | - | MIC90 | resazurin | H37Rv | <2 µM
O=C(Nc1cccc([N+](=O)[O-])c1)Nc1ccc(Cl)c(C(F)(F)F)c1 | - | - | MIC90 | broth dilution / turbidity | - | 0.3 µg/mL
O=C1COc2cc(NC(=S)Nc3ccccc3)ccc2N1 | - | - | MIC bound | BACTEC | H37Rv | >12.5 µg/mL
Cc1cc(O)c(C(C)C)cc1N1C(=O)C(C)SC1c1ccc(O)cc1 | - | 100 µg/mL | inhibition | - | H37Rv | inactive
CCCCCCCCCC(=O)N[C@H]1[C@H](Oc2c3cc4cc2Oc2ccc(cc2Cl)[C@@H](O[C@@H]2O[C@H](CO)[C@@H](O)[C@H](O)[C@H]2NC(C)=O)[C@@H]2NC(=O)[C@H](NC(=O)[C@@H]4NC(=O)[C@H]4NC(=O)[C@@H](Cc5ccc(c(Cl)c5)O3)NC(=O)[C@H](N)c3ccc(O)c(c3)Oc3cc(O)cc4c3)c3ccc(O)c(c3)-c3c(O[C@H]4O[C@H](CO)[C@@H](O)[C@H](O)[C@@H]4O)cc(O)cc3[C@H](C(=O)O)NC2=O)O[C@H](CO)[C@@H](O)[C@@H]1O | - | - | MIC | - | L1909 | >64 µg/mL
Cc1cc(O)c(C(C)C)cc1N1C(=O)C(Cl)C1c1ccccc1Cl | - | 100 µg/mL | inhibition | - | H37Rv | inactive
Cc1c(C(=O)N(CCO)CCO)nn(-c2ccc(Cl)cc2Cl)c1-c1ccc(Cl)cc1 | - | - | MIC | absorbance | H37Rv | >100 µg/mL
CCN(CC)C(=S)SCC(=O)O | - | 128 µg/mL | inhibition | BACTEC | H37Rv | 50%
Cc1c(OCC(F)(F)F)ccnc1CSc1nc2ccccc2[nH]1 | clinical isolate | - | MIC90 | resazurin | - | 1.06 µM
Cc1ccc(C(F)(F)F)cc1CNCc1cc(C(=N)C2CC2)c(Nc2ccccc2)[nH]c1=O | - | - | MIC | broth dilution | H37Rv | 0.1 µM
Cc1ccc(COc2ccc(-c3nc(N)nc(N)n3)cc2)cc1 | - | - | MIC | resazurin | H37Rv | 29.45 µM
CC1=NC(=O)C(=Cc2ccc(N(C)C)cc2)N1c1cc(C(C)C)c(O)cc1C | - | 100 µg/mL | inhibition | - | H37Rv | inactive
CCCCCCC.CN1C(=O)CN=C(c2ccc[nH]2)c2cc(Cl)ccc21 | - | 12.5 µg/mL | inhibition | BACTEC | H37Rv | 8%
O=[N+]([O-])c1cc(F)ccc1-n1cc(CSC2c3ccccc3-c3ccccc32)nn1 | - | - | MIC99 | broth dilution | Specimen 192 | >239 µM
CCc1nc2ccc(C)cn2c1C(=O)NCc1ccc2c(c1)CCO2 | - | - | MIC90 | resazurin | H37Rv | <2 µM
Nc1nc(N)nc(-c2ccc(OCc3ccc(F)cc3)cc2)n1 | - | - | MIC | resazurin | H37Rv | 3.95 µM
CCCSc1nnc(-c2ncc([N+](=O)[O-])n2C)s1 | - | 6.25 µg/mL | inhibition | - | H37Rv | 97%
COC(=O)Nc1ccc(NC(=O)OC)c2c1C(=O)c1ccccc1C2=O | - | - | MIC bound | BACTEC | H37Rv | >12.5 µg/mL
CCNc1[nH]c(=O)c(CNCc2cccc(C(F)(F)F)c2)cc1C(C)=N | - | - | MIC | broth dilution | H37Rv | >100 µM
Cc1c(CN2CCOCC2)nn(-c2ccc(Cl)cc2Cl)c1-c1ccc(Cl)cc1 | - | - | MIC | absorbance | H37Rv | 50 µg/mL
Cc1cc(O)c(C(C)C)cc1N1C(=O)C(C)SC1c1ccccc1O | - | 100 µg/mL | inhibition | - | H37Rv | inactive
CC1(C)CC[C@]2(C(=O)O)CC[C@]3(C)C(=CC[C@@H]4[C@@]5(C)C[C@H](O)[C@H](O)[C@@](C)(C(=O)O)[C@@H]5CC[C@]43C)[C@@H]2C1 | - | 12.5 µg/mL | inhibition | BACTEC | H37Rv | 28%
CSc1ccc(COc2ccc(-c3nc(N)nc(N)n3)cc2)cc1 | - | - | MIC | resazurin | H37Rv | 5.98 µM
CCC[CH2][Sn]([Br])([I])[CH2]CCC.c1cnc2c(c1)ccc1cccnc12 | - | - | MIC bound | BACTEC | H37Rv | ≤12.5 µg/mL
Cc1cc(O)c(C(C)C)cc1N1C(=O)C(C)SC1c1cccc(O)c1 | - | 100 µg/mL | inhibition | - | H37Rv | inactive
CO[C@H]1/C=C/O[C@@]2(C)Oc3c(C)c(O)c4c(O)c(c(/C=N/N5CCN(C)CC5)c(O)c4c3C2=O)NC(=O)/C(C)=C\C=C\[C@H](C)[C@H](O)[C@@H](C)[C@@H](O)[C@@H](C)[C@H](OC(C)=O)[C@@H]1C | - | - | MIC | agar / absorbance | H37Rv | 0.5 µg/mL
Cn1c([N+](=O)[O-])cnc1-c1nnc(SCc2ccc([N+](=O)[O-])cc2)s1 | - | 6.25 µg/mL | inhibition | - | H37Rv | 0%
CC(C)=CCC/C(C)=C/CC1(C)C(=O)SC(C)C1=O | - | - | MIC | - | H37Rv | 60 µM
Cc1cn2c(C(=O)NCc3ccc(Oc4ccc(C(F)(F)F)cc4)cc3)c(C)nc2s1 | - | - | MIC90 | resazurin | H37Rv | <2 µM
Cc1cc(O)c(C(C)C)cc1N1C(=O)C(Cl)C1c1cccc(O)c1 | - | 100 µg/mL | inhibition | - | H37Rv | inactive
Nc1nc(-c2cc3cc(Cl)ccc3o2)cs1 | - | 12.5 µg/mL | inhibition | BACTEC | H37Rv | 8%
O=[N+]([O-])c1ccc(-n2cc(CNC3c4ccccc4-c4ccccc43)nn2)cc1 | - | - | MIC99 | broth dilution | H37Rv | >261 µM
CN(C)c1ccc(/C=N/NC(=O)c2ccc(N(C)C)cc2)cc1 | - | - | MIC | BACTEC | H37Rv | ≥12.5 µg/mL
C[C@H]1COc2c(N3CCN(C)CC3)c(F)cc3c(=O)c(C(=O)O)cn1c23 | - | - | MIC90 | - | 5 isolates drug-resistant | 1 µg/mL
CC(C)=CCc1c(O)cc(O)c2c1OC(c1ccc(O)cc1)C(O)C2=O | - | - | MIC bound | resazurin | H37Rv | >6.25 µg/mL
CCc1nc2sc(C)cn2c1C(=O)NCc1ccc(S(F)(F)(F)(F)F)cc1 | - | - | MIC90 | resazurin | H37Rv | <2 µM
O=C(Nc1ccc(C2=NCCCN2)cc1)c1ccc(C(=O)Nc2ccc(C3=NCCCN3)cc2)nc1 | - | - | MIC | BACTEC | H37Rv | ≥12.5 µg/mL
Cc1ccc2nc(C)c(C(=O)NCc3ccc(N4CCS(=O)(=O)CC4)cc3)n2c1 | - | - | MIC90 | resazurin | H37Rv | <2 µM
CCCCCCC/C=C\CCCCCCCC(=O)NN | - | - | MIC100 | resazurin | ATCC 35822 INHr | >100 µg/mL
C=CCCC(=O)ONc1cc2[nH]c(C3CCCCC3)nc2cc1Oc1ccc(F)cc1 | - | 1 µg/mL | inhibition | resazurin | H37Rv | 54%
O=c1cn[nH]c2nc3ccccc3n12 | - | - | MIC bound | resazurin | H37Rv | >6.25 µg/mL
Cc1ccn2c(C(=O)NCc3ccc(N4CCSCC4)c(F)c3)c(C)nc2c1 | - | - | MIC90 | resazurin | H37Rv | <2 µM
CCn1cc(C(=O)O)c(=O)c2cc(F)c(N3CCN(CN4C(=O)/C(=N\c5ncc(Cc6cc(OC)c(OC)c(OC)c6)c(N)n5)c5cc(Cl)ccc54)C(C)C3)c(F)c21 | - | - | MIC | - | H37Rv | 1.56 µg/mL
C/C(=N\NC(=O)c1ccncc1)c1cccc(F)c1 | - | 0.5 µM | inhibition | BACTEC | - | 97%
Cc1c(C(=S)N2CC[Si](C)(C)CC2)nn(-c2ccc(Cl)cc2Cl)c1-c1ccc(Cl)cc1 | - | - | MIC | absorbance | H37Rv | >100 µg/mL
COc1cc(Cc2cnc(/N=C3\C(=O)N(CN4CCN(c5c(F)cc6c(=O)c(C(=O)O)cn(C7CC7)c6c5OC)CC4C)c4ccc(Br)cc43)nc2N)cc(OC)c1OC | - | - | MIC | - | H37Rv | 3.13 µg/mL
CC(Oc1ccc(-c2nc(N)nc(N)n2)cc1)c1ccccc1 | - | - | MIC | resazurin | H37Rv | 2050 µM
CC[C@@H](CO)NCCN[C@@H](CC)CO | - | - | MIC | - | 17 strains | 0.95–1.9 µg/mL
COc1ccc(-c2nc(N)nc(N)n2)cc1OCc1ccc(Cl)cc1 | - | - | MIC | resazurin | H37Rv | 4.92 µM
O=C(NCc1ccccc1)C1C(=O)C(=O)N(Cc2ccccc2)C1=O | - | - | MIC bound | resazurin | H37Rv | >6.25 µg/mL
C#CCSc1nnc(-c2ncc([N+](=O)[O-])n2C)s1 | - | - | MIC | - | H37Rv | >6.25 µg/mL
CC1=C(O)C(C)(CCC(C)CCCC(C)C)SC1=O | - | - | MIC90 | - | H37Rv | 29 µM
CO[C@H]1/C=C/O[C@@]2(C)Oc3c(C)c(O)c4c(O)c(c(/C=N/N5CCN(C)CC5)c(O)c4c3C2=O)NC(=O)/C(C)=C\C=C\[C@H](C)[C@H](O)[C@@H](C)[C@@H](O)[C@@H](C)[C@H](OC(C)=O)[C@@H]1C | - | - | MIC | - | - | 0.5 µg/mL
O=[N+]([O-])c1ccccc1C=Nc1ccc(O)cc1 | - | 100 µg/mL | inhibition | - | H37Rv | inactive
CN(C)c1ccc(N=Nc2nccs2)cc1 | - | - | MIC bound | resazurin | H37Rv | >6.25 µg/mL
C[C@H]1CC[C@H]2Oc3cccc(O)c3C(=O)[C@@H]12 | - | - | MIC | resazurin | H37Rv | 3.5 µM
Cc1ccc(Oc2cc3nc(C4CCCCC4)[nH]c3cc2NC(=O)c2ccc(F)cc2F)cc1 | - | 1 µg/mL | inhibition | resazurin | H37Rv | 44%
Nc1nc(N)nc(-c2ccc(OCc3ccc(Cl)cc3)cc2)n1 | - | - | MIC | resazurin | H37Rv | 1.76 µM
Cc1c(C(=O)N2CCCCC2)nn(-c2ccc(Cl)cc2Cl)c1-c1ccc(Cl)cc1 | - | - | MIC | absorbance | H37Rv | >200 µg/mL
CCn1cc(C(=O)O)c(=O)c2cc(F)c(N3CCN(CN4C(=O)/C(=N\c5ncc(Cc6cc(OC)c(OC)c(OC)c6)c(N)n5)c5cc(Br)ccc54)C(C)C3)c(F)c21 | - | - | MIC | - | H37Rv | 3.13 µg/mL
CN1c2ccc(Cl)cc2C2(C(=O)NN)C(C(=O)NN)N(C3CCCCC3)C(=O)C12N | - | 12.8 µg/mL | inhibition | BACTEC | H37Rv | 71%
CCOC(=O)CNC(=O)c1nn(-c2ccc(Cl)cc2Cl)c(-c2ccc(Cl)cc2)c1C | - | - | MIC | absorbance | H37Rv | >100 µg/mL
Cc1ccc(-n2cc(CNC3c4ccccc4-c4ccccc43)nn2)cc1 | - | - | MIC99 | broth dilution | H37Rv | 142 µM
CCCCCCC/C=C\CCCCCCCC(=O)O | - | - | MIC100 | resazurin | ATCC 35822 INHr | >100 µg/mL
CN(C)CCNC(=O)c1cccc2c(=O)c3ccccc3oc12 | - | 12.5 µg/mL | inhibition | BACTEC | H37Rv | 0%
Nc1nc(N)nc(-c2ccc(OCc3ccccc3)cc2)n1 | - | - | MIC | resazurin | H37Rv | 87.36 µM
Cn1c([N+](=O)[O-])cnc1-c1nnc(SCc2ccccc2[N+](=O)[O-])s1 | - | 6.25 µg/mL | inhibition | - | H37Rv | 0%
CCc1nc2ccc(Cl)cn2c1C(=O)NCc1cccc(S(F)(F)(F)(F)F)c1 | - | - | MIC90 | resazurin | H37Rv | <2 µM
NNC(=O)c1ccncc1 | - | - | MIC | - | PMH29:kasA/kasB | 0.125 µg/mL
CCC(Oc1ccc(-c2nc(N)nc(N)n2)cc1)c1ccccc1 | - | - | MIC | resazurin | H37Rv | 40.86 µM
CCN(CC)CCC(=O)O[C@H]1CC[C@H](CC(C)[C@H]2CC(=O)C(C)C=C(C)[C@H](OC(=O)CCN(CC)CC)C(OC)C(=O)[C@H](C)CC(C)/C=C/C=C/C=C(\C)C(OC)CC3CC[C@H](C)[C@](O)(O3)C(=O)C(=O)N3CCCCC3C(=O)O2)CC1OC | - | - | MIC bound | resazurin | H37Rv | >6.25 µg/mL
Cc1cn2c(C(=O)NCc3ccc4c(c3)CCO4)c(C)nc2s1 | - | - | MIC90 | resazurin | H37Rv | <2 µM
CC(C)(C)C1=CC(=C2C(=O)C(=O)c3ccccc3C2=O)C=C(C(C)(C)C)C1=O | - | 128 µg/mL | inhibition | BACTEC | H37Rv | 100%
Nc1nc(N)nc(-c2ccc(OCc3cccc(Cl)c3)cc2)n1 | - | - | MIC | resazurin | H37Rv | 1.57 µM

Repeating the first 4 entries:

structure | setting | tested at | read-out | method | strain or isolate | value
COc1cc2c(cc1OC)[C@@]13CCN4C=C5CCO[C@H]6CC(=O)N2[C@H]1[C@H]6[C@H]5C[C@H]43 | - | 12.8 µg/mL | inhibition | BACTEC | H37Rv | 10%
CC1=C(O)C(C)(CCC(C)C)SC1=O | - | - | MIC50 | - | H37Rv | 230 µM
Cc1cn2c(C(=O)NCc3ccc(N4CCCN(c5ccc(S(F)(F)(F)(F)F)cc5)CC4)c(F)c3)c(C)nc2s1 | - | - | MIC90 | resazurin | H37Rv | <2 µM
O=C(N=Nc1c(O)[nH]c2ccc(Br)cc12)c1ccco1 | - | 12.5 µg/mL | inhibition | BACTEC | H37Rv | -26%